{"source": "patent US8173610B2", "about": "(priority 2005, dated 2012)", "system": "HCV", "assay": "Inhibition of HCV replication in chronically HCV-infected human PBMC (RT-PCR)", "protocol": "In addition, the inhibition of HCV replication by epirubicin hydrochloride (BNE00), N3′-acetylepirubicin (BNE01), and N3′,O4′,O14-triacetylepirubicin (BNE02) were analyzed in chronically HCV-infected human peripheral blood monocyte cells (PBMC) cultures which was performed as follows. PBMC were isolated from HCV-infected patients blood by Ficoll Pague centrifugation placed on Petri dishes and cultured in 10% FCS, RPMI medium containing PHA (3 μg/ml) according to Laskus et al. (J Infect Dis. 2000) and enriched with known concentrations of BNE00, BNE01, BNE02 in standard conditions (37° C., 5% CO2). On day 5 and 14 of the culture the cells were collected and after extraction, HCV RNA was […] estimated by real-time Reverse Transcriptase Polymerase Chain Reaction using SYBR Green system (FIG. 3). Semiquantitative estimation of HCV RNA was also performed by Reverse Transcriptase Polymerase Chain Reaction, and visualized after electrophoresis through a 1% agarose gel, using ethidium bromide staining (FIG. 4)."}
{"smiles": "COc1cccc2c1C(=O)c1c(O)c3c(c(O)c1C2=O)CC(O)(C(=O)COC(C)=O)CC3OC1CC(NC(C)=O)C(OC(C)=O)C(C)O1", "note": "(centres unmarked) [BNE02, N3′, O4′, O14-triacetyl-4′-epidoxorubicin]", "values": [{"measurement": "Therapeutic Index in PBMC TI90 CC90/IC90", "value": 240.0}]}
{"smiles": "COc1cccc2c1C(=O)c1c(O)c3c(c(O)c1C2=O)C[C@@](O)(C(=O)CO)C[C@@H]3O[C@H]1C[C@@H](NC(C)=O)[C@H](O)[C@H](C)O1", "note": "[BNE01, N3′-acetyl-4′-epidoxorubicin]", "values": [{"measurement": "Therapeutic Index in PBMC TI90 CC90/IC90", "value": 194.0}]}
